Data as given in PubChem BioAssay AID1259414 (Drosophila RNAi Screening Center, 2018)
In all, the deposit lists about 24,000 reagents; shown is a random part of those with a known target gene and a result. Of all reagents, about 1,210 (5%) got an active call. 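Inactive calls also include excluded dsRNAs with several or no targets, genes unexpressed in JW18, and well A1, regardless of score.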 Unmarked entries are inactive. Reagents against one gene are numbered here. A plus sign joins genes that one reagent is predicted to hit.

- Test: 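Host factors increasing or decreasing Wolbachia levels in cultured fly cells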 (primary screen)
- System: Drosophila JW18 cells infected with Wolbachia
- Reagents: long dsRNA against Drosophila genes, 0.25 µg dsRNA per well of a 384-well plate
- Duration: 5 days
- Challenge: cells persistently infected with Wolbachia before knock-down; no added drug
- Read-out: 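Automated imaging of bacterial rRNA staining divided by host cell count, reported as plate-normalised robust z-score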
- Scale: Wolbachia per cell robust z: higher = more Wolbachia per host cell than the plate typical
- Active means: 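Hit when robust z is 1.5 or more, or -1.5 or less, in at least two of three replicates; excludes dsRNAs with several or no targets, genes not expressed in JW18 and well A1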

Against CG13365 #1 the deposit lists Wolbachia per cell robust z, rep 1 = 0.366; Wolbachia per cell robust z, rep 2 = 0.768; Wolbachia per cell robust z, rep 3 = 2.53.
Silencing of CG13365 #2 gave: Wolbachia per cell robust z, rep 1 = -0.0837; Wolbachia per cell robust z, rep 2 = -0.0947; Wolbachia per cell robust z, rep 3 = 1.64.
Against Pif1A + Pif1B, the values are Wolbachia per cell robust z, rep 1 = -1.78; Wolbachia per cell robust z, rep 2 = 0.19; Wolbachia per cell robust z, rep 3 = 0.489.
With knock-down of Myo81F #1, the screen gave Wolbachia per cell robust z, rep 1 = -5.81; Wolbachia per cell robust z, rep 2 = 0.00245; Wolbachia per cell robust z, rep 3 = 0.0115.
Depletion of Myo81F #2 resulted in: Wolbachia per cell robust z, rep 1 = 1.91; Wolbachia per cell robust z, rep 2 = -0.431; Wolbachia per cell robust z, rep 3 = 1.08.
Depletion of Myo81F #3 resulted in: Wolbachia per cell robust z, rep 1 = 1.05; Wolbachia per cell robust z, rep 2 = 0.18; Wolbachia per cell robust z, rep 3 = 0.603.
After knock-down of Myo81F #4, the record shows Wolbachia per cell robust z, rep 1 = -0.105; Wolbachia per cell robust z, rep 2 = 0.0247; Wolbachia per cell robust z, rep 3 = -0.266.
For Myo81F #5 the deposit lists Wolbachia per cell robust z, rep 1 = -7.28; Wolbachia per cell robust z, rep 2 = -1.12; Wolbachia per cell robust z, rep 3 = -1.87.
Knock-down of Myo81F #6 came out at: Wolbachia per cell robust z, rep 1 = 1.75; Wolbachia per cell robust z, rep 2 = -0.52; Wolbachia per cell robust z, rep 3 = -0.447.
Against Myo81F #7, the entry reads Wolbachia per cell robust z, rep 1 = -1.11; Wolbachia per cell robust z, rep 2 = -0.0396; Wolbachia per cell robust z, rep 3 = 0.587.
With knock-down of Myo81F #8, the record shows Wolbachia per cell robust z, rep 1 = 0.294; Wolbachia per cell robust z, rep 2 = -0.337; Wolbachia per cell robust z, rep 3 = -0.71.
For Myo81F #9, the values are Wolbachia per cell robust z, rep 1 = -0.342; Wolbachia per cell robust z, rep 2 = 0.233; Wolbachia per cell robust z, rep 3 = -0.648.
With knock-down of Polr2G, the record shows Wolbachia per cell robust z, rep 1 = 0.883; Wolbachia per cell robust z, rep 2 = 0.105; Wolbachia per cell robust z, rep 3 = 2.03.
Against CG15357, the values are Wolbachia per cell robust z, rep 1 = 0.364; Wolbachia per cell robust z, rep 2 = -0.138; Wolbachia per cell robust z, rep 3 = -0.132.
After knock-down of CG34442, the record shows Wolbachia per cell robust z, rep 1 = -0.57; Wolbachia per cell robust z, rep 2 = 0.225; Wolbachia per cell robust z, rep 3 = -0.95.
Against CG42747 #1, the entry reads Wolbachia per cell robust z, rep 1 = -2.73; Wolbachia per cell robust z, rep 2 = -0.288; Wolbachia per cell robust z, rep 3 = -0.784.
With knock-down of CG42747 #2, the screen gave Wolbachia per cell robust z, rep 1 = -0.747; Wolbachia per cell robust z, rep 2 = 0.0987; Wolbachia per cell robust z, rep 3 = -2.47.
For CG42747 #3 the deposit lists Wolbachia per cell robust z, rep 1 = -1.99; Wolbachia per cell robust z, rep 2 = -0.276; Wolbachia per cell robust z, rep 3 = 1.15.
Against Helz #1, the values are Wolbachia per cell robust z, rep 1 = 0.281; Wolbachia per cell robust z, rep 2 = -3.13; Wolbachia per cell robust z, rep 3 = -0.383.
Knock-down of Helz #2 resulted in: Wolbachia per cell robust z, rep 1 = -0.251; Wolbachia per cell robust z, rep 2 = -1.33; Wolbachia per cell robust z, rep 3 = -0.579.
Against CG5104, the entry reads Wolbachia per cell robust z, rep 1 = -0.0444; Wolbachia per cell robust z, rep 2 = 0.44; Wolbachia per cell robust z, rep 3 = -0.477.
Knock-down of Dic1 gave: Wolbachia per cell robust z, rep 1 = 0.246; Wolbachia per cell robust z, rep 2 = 1.05; Wolbachia per cell robust z, rep 3 = 0.365.
nuf #1 scored Wolbachia per cell robust z, rep 1 = -0.213; Wolbachia per cell robust z, rep 2 = 1.44; Wolbachia per cell robust z, rep 3 = 0.0934.
For nuf #2, the values are Wolbachia per cell robust z, rep 1 = -3.35; Wolbachia per cell robust z, rep 2 = -0.869; Wolbachia per cell robust z, rep 3 = -0.642.
For nuf #3, the values are Wolbachia per cell robust z, rep 1 = 0.787; Wolbachia per cell robust z, rep 2 = -0.393; Wolbachia per cell robust z, rep 3 = -0.00494.
With knock-down of nuf #4, the record shows Wolbachia per cell robust z, rep 1 = -7.51; Wolbachia per cell robust z, rep 2 = -1.08; Wolbachia per cell robust z, rep 3 = 0.0454.
DNAlig4 scored Wolbachia per cell robust z, rep 1 = -1.08; Wolbachia per cell robust z, rep 2 = -0.176; Wolbachia per cell robust z, rep 3 = -3.52.
Silencing of Obp19a gave: Wolbachia per cell robust z, rep 1 = -0.149; Wolbachia per cell robust z, rep 2 = 0.145; Wolbachia per cell robust z, rep 3 = -1.08.
For dgt3, the entry reads Wolbachia per cell robust z, rep 1 = 0.302; Wolbachia per cell robust z, rep 2 = 0.423; Wolbachia per cell robust z, rep 3 = 0.617.
Knock-down of CG34274 came out at: Wolbachia per cell robust z, rep 1 = 0.753; Wolbachia per cell robust z, rep 2 = 0.736; Wolbachia per cell robust z, rep 3 = -0.282.

Part of the list above in another layout:
{"predicted target":"nuf","reagent":1,"Wolbachia per cell robust z, rep 1":-0.213,"Wolbachia per cell robust z, rep 2":1.44,"Wolbachia per cell robust z, rep 3":0.0934}
{"predicted target":"nuf","reagent":2,"Wolbachia per cell robust z, rep 1":-3.35,"Wolbachia per cell robust z, rep 2":-0.869,"Wolbachia per cell robust z, rep 3":-0.642}
{"predicted target":"nuf","reagent":3,"Wolbachia per cell robust z, rep 1":0.787,"Wolbachia per cell robust z, rep 2":-0.393,"Wolbachia per cell robust z, rep 3":-0.00494}
